This is a selection: effects in other tests are not listed, and their absence says nothing.
How the values were obtained:
Athelia rolfsii = test: Fungicidal activity against Athelia rolfsii assessed as growth inhibition at 100 ppm after 5 days by agar dilution test
Pythium = test: Fungicidal activity against Pythium sp. assessed as growth inhibition at 100 ppm after 5 days by agar dilution test

CC(C)=CCCC(C)CCOP(=S)(OCCC(C)CCC=C(C)C)c1ccccc1 (configuration not stated)
growth inhibition (GI) (Athelia rolfsii): 5.1%
growth inhibition (GI) (Pythium): 11.4%
